Measured values from several laboratories, pooled; numbers as filed in NIAID ChemDB.

All rows: enzyme or target tests; species: HIV-1; target: Reverse transcriptase; endpoint: IC50

ICn: concentration for n% inhibition.

compound	strain or isolate	mutations	method	result
Cc1cc(Br)cc(S(=O)(=O)c2cccc(N)c2C#N)c1				0.007 µM
Cc1cn([C@H]2CC[C@@H](CC(F)(F)P(=O)(O)OP(=O)(O)OP(=O)(O)O)O2)c(=O)[nH]c1=O			fluorescence	~10 µM
Cc1ncc([N+](=O)[O-])n1CCOC(c1ccccc1)c1ccsc1			RT activity / nucleotide incorporation	19.6 µM
Cc1c(Cc2c(Cl)cccc2Cl)nc(S(=O)(=O)Cc2ccc(Br)cc2)[nH]c1=O		RT-181I	nucleotide incorporation / radiometric	>400 µM
CC1(C)[C@H](O)CC[C@]2(C)C3=CC[C@@]4(C)[C@@H]5C[C@](C)(COC(=O)c6ccccc6)CC[C@]5(C)CC[C@]4(C)C3=CC[C@@H]12			nucleotide incorporation	2.2 µM
COc1cc2c(c(OC)c1OC)-c1c(cc3c(c1OC)OCO3)C[C@H](C)[C@@](C)(O)C2			nucleotide incorporation	100 µM
Cc1cccc2c1nc(-c1cccc3ccccc13)n2Cc1c(F)cccc1F				>10 µM
Nc1ncnc2c1ncn2CCOCP(=O)(O)O			nucleotide incorporation / radiometric	>500 µM
Fc1cccc(F)c1Cn1c(-c2c(F)cccc2F)nc2cc(Br)ccc21				>10 µM
COc1c(OC)c(OC)c(-c2cc(=O)c3c(O)cc(O)cc3o2)c(OC)c1OC			nucleotide incorporation / radiometric	>200 µg/mL
Fc1cccc(F)c1Cn1c(-c2c(F)cccc2F)nc2c(Br)cccc21				<10 µM
N#Cc1c(N)cccc1S(=O)(=O)c1ccc(Br)cc1				0.2 µM
C=C(C)[C@@H]1CC[C@]2(C=O)CC[C@]3(C)[C@H](CC[C@@H]4[C@@]5(C)CCC(=O)C(C)(C)[C@@H]5CC[C@]43C)[C@@H]12			nucleotide incorporation	3.4 µM
COc1cc(C(F)(F)F)cc(S(=O)(=O)c2cccc(N)c2C#N)c1				0.01 µM
Cc1cn([C@H]2C=C[C@@H](COP(=O)(O)OP(=O)(O)OP(=O)(O)O)O2)c(=O)[nH]c1=O		RT-P225H	nucleotide incorporation / radiometric	0.03 µM
Cc1cn([C@H]2CC[C@@H](COP(=O)(O)OP(=O)(O)OP(=O)(O)O)O2)c(=O)[nH]c1=O		RT-E138K	nucleotide incorporation / radiometric	0.1 µM
Nc1nc2c(ncn2[C@H]2CC[C@@H](COP(=O)(O)OP(=O)(O)OP(=O)(O)O)O2)c(=O)[nH]1		RT-V106A P225H	nucleotide incorporation / radiometric	0.097 µM
Cc1cccc(-c2cc(C)c(Nc3ccnc(Nc4ccc(C#N)cc4)n3)c(C)c2)c1			RT activity / PicoGreen / fluorescence	0.018 µM
Cc1ccc(S(=O)(=O)c2cccc(N)c2C#N)cc1				0.2 µM
Cc1ccc(NCC(=O)Cn2cc([N+](=O)[O-])nc2C)cc1			RT activity / nucleotide incorporation	>100 µM
Cc1cc(C)cc(S(=O)(=O)c2c(C(=O)NNCCO)[nH]c3ccc(Cl)cc23)c1		RT-L101I	nucleotide incorporation / radiometric	15 µM
CN(C)C(=O)Oc1nsnc1-c1c(Cl)cccc1Cl	IIIB-R (RT-Y181C)	RT-Y181C	nucleotide incorporation	>200 µM
Cc1cc(C)c(-n2nnnc2SCC(=O)Nc2ccc([N+](=O)[O-])cc2C)c(C)c1		RT-K103N		0.495 µM
C[C@]12CC[C@H](OS(=O)(=O)O)CC1=CC[C@@H]1[C@@H]2CC[C@]2(C)C(=O)CC[C@@H]12	LAV			>100 µM
COc1ccc2[nH]cc(CCN)c2c1				<8000 µM
O=C(O)/C=C/c1ccc(O)c(O)c1				>1000 µM
N#Cc1c(N)cccc1S(=O)(=O)c1cc(Cl)cc(Cl)c1				0.3 µM
CC1(C)CC[C@]2(CO)CC[C@]3(C)C(=CCC4[C@@]5(C)CC[C@H](O)C(C)(C)C5CC[C@]43C)C2C1			nucleotide incorporation	5 µM
Cc1ccc(CCNC(=S)Nc2ccc(Br)cn2)cc1			nucleotide incorporation / radiometric	0.1 µM
Cc1c(Sc2ccccc2)n(COCCO)c(=O)[nH]c1=O		RT-Y181I	nucleotide incorporation	2.8 µM
CC(C)=CCC[C@@H](C)C1=C2CC[C@@H]3[C@@]4(C)CC[C@H](O)C(C)(C)[C@@H]4CC[C@@]3(C)[C@]2(C)CC1			nucleotide incorporation	4.5 µM
CC(C)=CC(=O)C[C@@H](C)[C@H]1CC[C@@]2(C)[C@@H]3CC[C@H]4C(C)(C)[C@@H](O)C[C@H](O)[C@@]45C[C@@]35CC[C@]12C			nucleotide incorporation / radiometric	156.8 µg/mL
Cc1c(Cc2ccc(F)cc2)nc(SCc2ccc([N+](=O)[O-])cc2)[nH]c1=O		RT-K103N	nucleotide incorporation / radiometric	>400 µM
CCc1cc(CCc2nc3ccccc3o2)c(=O)[nH]c1C		RT-K103N Y181C	nucleotide incorporation	118 µM
COc1cc2c(c(OC)c1OC)-c1c(cc(OC)c(OC)c1OC)C[C@](C)(O)[C@@H](C)C2			nucleotide incorporation	>100 µM
Cc1c(Cc2c(F)cccc2F)nc(SCc2ccc(C#N)cc2)[nH]c1=O		RT-181I	nucleotide incorporation / radiometric	>400 µM
Cc1cccc2c1nc(-c1c(F)cccc1F)n2Cc1cccnc1				<10 µM
COc1ccc(CSc2nc(Cc3ccc(F)cc3)c(C)c(=O)[nH]2)cc1	WT		nucleotide incorporation / radiometric	>400 µM
Cc1cn([C@H]2CC[C@@H](CC(F)(F)P(=O)(O)OP(=O)(O)C(F)(F)P(=O)(O)O)O2)c(=O)[nH]c1=O			fluorescence	~10 µM
Cc1c(Cc2c(F)cccc2F)nc(SCc2ccc(C(C)C)cc2)[nH]c1=O		RT-K103N	nucleotide incorporation / radiometric	>400 µM
Cc1cn([C@H]2C[C@H](N=[N+]=[N-])[C@@H](CP(=O)(O)OP(=O)(O)NP(=O)(O)O)O2)c(=O)[nH]c1=O			fluorescence	>10 µM
CCc1ccc(N2CC(O)Cn3c2nc2c3c(=O)n(C)c(=O)n2C)cc1			RT activity / RNase H / absorbance	>100 µM
CC(C)=CCC[C@H](C)C1CC[C@]2(C)C3=CC[C@H]4C(C)(C)[C@@H](O)CC[C@]4(C)C3CC[C@@]12C			nucleotide incorporation	9.2 µM
COc1ccc2[nH]c(=O)oc2c1				<800 µM
NS(=O)(=O)c1ccc(NC(=O)CSc2nnnn2-c2cccc(Cl)c2Cl)c(Cl)c1				0.009 µM
CCc1cc(CCc2nc3ccccc3o2)c(=S)[nH]c1C		RT-K103N	nucleotide incorporation	0.5 µM
CCN(C)C(=O)Oc1nsnc1-c1c(Cl)cccc1Cl	IIIB-R (RT-Y181C)	RT-Y181C	nucleotide incorporation	66.4 µM
COc1ccc(CSc2nc(Cc3c(Cl)cccc3Cl)c(C)c(=O)[nH]2)c(OC)c1		RT-181I	nucleotide incorporation / radiometric	>400 µM
O=C(CSc1nnnn1-c1cc(Cl)ccc1Cl)Nc1ccccc1[N+](=O)[O-]		RT-K103N		0.004 µM
Nc1ccn([C@H]2CC[C@@H](COP(=O)(O)OP(=O)(O)OP(=O)(O)O)O2)c(=O)n1	WT		nucleotide incorporation / radiometric	4.78 µM
CCCCCCN(C)C(=O)Oc1nsnc1-c1c(Cl)cccc1Cl	IIIB		nucleotide incorporation	9.5 µM
CCCCOc1cc(C)cc(S(=O)(=O)c2cccc(N)c2C#N)c1				0.7 µM
Cc1c(Cc2c(Cl)cccc2Cl)nc(SCc2ccc3c(c2)OCO3)[nH]c1=O		RT-181I	nucleotide incorporation / radiometric	>400 µM
Cc1cn([C@H]2C[C@H](N=[N+]=[N-])[C@@H](CP(=O)(O)OP(=O)(O)C(F)(F)P(=O)(O)O)O2)c(=O)[nH]c1=O			fluorescence	>10 µM
COc1ccc(CSc2nc(Cc3c(F)cccc3F)c(C)c(=O)[nH]2)cc1		RT-181I	nucleotide incorporation / radiometric	>400 µM
CCCCNC(=O)Oc1nsnc1-c1c(Cl)cccc1Cl	IIIB-R (RT-Y181C)	RT-Y181C	nucleotide incorporation	>200 µM
Nc1ncnc2c1ncn2[C@@H]1O[C@H](COP(=O)(O)OP(=O)(O)OP(=O)(O)O)C[C@@H]1F		RT-A62V V75I F77L F116Y Q151M	nucleotide incorporation	204 µM
CC(C)=CC(=O)C[C@@H](C)[C@H]1CC[C@@]2(C)[C@@H]3CC[C@H]4[C@](C)(C(=O)O)[C@@H](O)CC[C@@]45C[C@@]35CC[C@]12C			nucleotide incorporation / radiometric	<22.5 µg/mL
Cc1cc(C)c(-n2nnnc2SCC(=O)Nc2ccc(OCCCN(C)C)cc2Cl)c(C)c1		RT-K103N		0.065 µM
O=S(=O)(c1ccccc1)n1c(-c2c(F)cccc2F)nc2ccccc21				~10 µM
COc1cc2c(c(OC)c1OC)-c1c(cc3c(c1OC)OCO3)C[C@H](C)[C@H](C)C2		K103N	nucleotide incorporation	90 µM
Cc1cnc([N+](=O)[O-])n1C(C)C(=O)Nc1cccc(O)c1			RT activity / nucleotide incorporation	>100 µM
COC(=O)[C@]12CC[C@@H](C)[C@H](C)[C@H]1C1=CC[C@@H]3[C@@]4(C)CC[C@H](O)C(C)(C)[C@@H]4CC[C@@]3(C)[C@]1(C)CC2			nucleotide incorporation	5.5 µM
Cc1cccc(S(=O)(=O)c2cccc(N)c2C#N)c1				4.5 µM
CC1=CC[C@H](O)C(C)(C)[C@@H]1CC/C(C)=C/CCC1=C(C)CC[C@@]2(C)CCC(C)(C)C[C@@H]12			nucleotide incorporation	>47 µM
Cc1cc(C)c(-n2nnnc2SCC(=O)Nc2ccc(C(N)=O)cc2C)c(C)c1				0.055 µM
Cc1ncc([N+](=O)[O-])n1CCOC(c1ccccc1)c1cnccn1			RT activity / nucleotide incorporation	>100 µM
CCCCN(C)C(=O)Oc1nsnc1-c1c(Cl)cccc1Cl	IIIB		nucleotide incorporation	4.5 µM
Cc1nc2ccccc2n1Cc1c(F)cccc1F				>10 µM

9 of the rows above, restated:

{"compound": "CCc1cc(CCc2nc3ccccc3o2)c(=S)[nH]c1C", "mutations": "RT-K103N", "method": "nucleotide incorporation", "result": "0.5 µM"}
{"compound": "O=C(O)/C=C/c1ccc(O)c(O)c1", "result": ">1000 µM"}
{"compound": "COc1ccc(CSc2nc(Cc3ccc(F)cc3)c(C)c(=O)[nH]2)cc1", "strain or isolate": "WT", "method": "nucleotide incorporation / radiometric", "result": ">400 µM"}
{"compound": "COc1cc(C(F)(F)F)cc(S(=O)(=O)c2cccc(N)c2C#N)c1", "result": "0.01 µM"}
{"compound": "COC(=O)[C@]12CC[C@@H](C)[C@H](C)[C@H]1C1=CC[C@@H]3[C@@]4(C)CC[C@H](O)C(C)(C)[C@@H]4CC[C@@]3(C)[C@]1(C)CC2", "method": "nucleotide incorporation", "result": "5.5 µM"}
{"compound": "CCN(C)C(=O)Oc1nsnc1-c1c(Cl)cccc1Cl", "strain or isolate": "IIIB-R (RT-Y181C)", "mutations": "RT-Y181C", "method": "nucleotide incorporation", "result": "66.4 µM"}
{"compound": "Cc1cccc(-c2cc(C)c(Nc3ccnc(Nc4ccc(C#N)cc4)n3)c(C)c2)c1", "method": "RT activity / PicoGreen / fluorescence", "result": "0.018 µM"}
{"compound": "Cc1cn([C@H]2CC[C@@H](CC(F)(F)P(=O)(O)OP(=O)(O)OP(=O)(O)O)O2)c(=O)[nH]c1=O", "method": "fluorescence", "result": "~10 µM"}
{"compound": "Cc1cccc(S(=O)(=O)c2cccc(N)c2C#N)c1", "result": "4.5 µM"}

An empty or dashed field is not shown. Neighbouring rows are from separate reports.